# Data source: PubChem BioAssay AID624099 (ICCB-Longwood, 2012)
# Screen: 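Knock-downs relieving repression by E2 of an HPV18 LCR luciferase reporter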 (primary screen)
# Cells: human C33A cervical carcinoma cells (HPV-negative) stably expressing BPV1 E2 and an HPV18 LCR luciferase reporter
# Reagents: siRNA pool against human genes, 40 nM
# Time to read-out: 72 h
# Read-out: 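HPV18 LCR reporter light per well, converted to plate-wise z-scores that exclude control wells, and averaged over triplicate plates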
# Reading the numbers: mean z-score and z-score: higher = stronger reporter signal, weaker E2 silencing
# Hit rule: 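Hit if mean z-score reaches 2 and two or more of three replicate z-scores also reach 2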
# In all, the deposit lists about 21,000 reagents; shown is a part drawn at random. 497 of them (2.4%) were called active. 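Higher z means weaker E2 silencing; only reporter increases were scored, and knock-downs that hurt cell survival may mask genuine repressor factors.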 Reagents against one gene are numbered here.
gene knocked down,reagent,mean z-score,"z-score, replicate A","z-score, replicate B","z-score, replicate C",activity call
MYL11,1,-0.14,0.01,-0.09,-0.35,inactive
ECPAS,1,0.13,0.06,0.41,-0.08,inactive
WASH6P,1,2.08,2,1.83,2.4,active
WASH6P,2,-0.1,-0.25,0.21,-0.26,inactive
TARDBP,1,-1.17,-1.24,-1.11,-1.17,inactive
ARHGEF12,1,-0.28,-0.18,-0.3,-0.36,inactive
PRR18,1,0.99,1.13,0.92,0.93,inactive
SLC39A7,1,0.63,0.9,0.55,0.43,inactive
TMPRSS11E,1,0.41,0.32,0.65,0.27,inactive
LOC391025 (retired record),1,-0.41,-0.09,-0.65,-0.49,inactive
GNG5,1,0.23,0.41,0.1,0.2,inactive
LINC00928,1,-0.91,-0.83,-0.96,-0.95,inactive
CHGB,1,-0.27,-0.37,-0.26,-0.18,inactive
PLEKHM1,1,-0.09,0.12,0.14,-0.55,inactive
DSCC1,1,-0.76,-0.53,-1.14,-0.61,inactive
DNAH8,1,-0.98,-1.05,-0.68,-1.2,inactive
DNAH8,2,0.46,0.46,0.63,0.29,inactive
TNS3,1,-0.1,-0.16,0.02,-0.15,inactive
DPM3,1,-1.18,-0.95,-1.06,-1.53,inactive
ATP6V0E2,1,-1.2,-1.4,-0.99,-1.2,inactive
CNPPD1,1,-1.13,-1.09,-1.08,-1.24,inactive
RNPS1,1,0.29,0.15,0.44,0.29,inactive

5 neighbouring entries already listed, quoted:
gene knocked down,reagent,mean z-score,"z-score, replicate A","z-score, replicate B","z-score, replicate C",activity call
ARHGEF12,1,-0.28,-0.18,-0.3,-0.36,inactive
PRR18,1,0.99,1.13,0.92,0.93,inactive
SLC39A7,1,0.63,0.9,0.55,0.43,inactive
TMPRSS11E,1,0.41,0.32,0.65,0.27,inactive
LOC391025 (retired record),1,-0.41,-0.09,-0.65,-0.49,inactive

The results go on.
gene knocked down,reagent,mean z-score,"z-score, replicate A","z-score, replicate B","z-score, replicate C",activity call
NPM3,1,-0.94,-1.12,-0.69,-1.01,inactive
LSM12,1,0.51,0.79,0.61,0.14,inactive
SLC60A2,1,2.08,2.34,1.94,1.96,inactive
PPP4R1L,1,1.07,1.25,1.01,0.96,inactive
EIF4HP1,1,0.56,0.9,0.23,0.55,inactive
EIF4HP1,2,0.31,0.22,0.37,0.34,inactive
CEP20,1,0.93,1.33,0.73,0.73,inactive
ZNF264,1,0.13,0.14,0.07,0.19,inactive
LOC340148 (retired record),1,0.9,0.82,1.01,0.86,inactive
AGBL5,1,-0.27,-0.52,-0.28,0,inactive
TIMM17A,1,0.47,0.53,0.59,0.3,inactive
HSPA8P8,1,0.48,0.43,0.21,0.81,inactive
HSPA8P8,2,-0.01,0.02,0.05,-0.1,inactive
EGFL7,1,0.17,0.27,-0.13,0.36,inactive
GDA,1,-0.83,-1.12,-0.49,-0.89,inactive
LBR,1,0.4,0.19,0.46,0.55,inactive
NCBP1,1,-1.21,-0.86,-1.21,-1.56,inactive
